Measured values from several laboratories, pooled; numbers as filed in NIAID ChemDB.

Common to all: growth or infection tests; agent: Hepatitis B virus; cells: HepG2 2.2.15; measure: EC50

Blank or dashed fields: not listed here. a–b is a range or a potency band. Conditions beyond the fields shown may differ between rows. ECn: concentration that inhibits the pathogen or its effect by n%.

compound | read by | value
CC1=C(O)C(=O)C=C2C1=CC=C1[C@@]2(C)CC[C@@]2(C)[C@@H]3C[C@](C)(C(=O)O)CC[C@]3(C)CC[C@]12C | ELISA / antigen | 15.1 µM
Nc1ncnc2c1ncn2C[C@@H](CO)OCP(=O)(O)O | hybridisation | 1.5 µM
C[C@@]1(C(=O)O)CC[C@]2(C)CC[C@]3(C)C4=CC(c5c[nH]c6ccc(F)cc56)c5cc(O)c(O)cc5[C@]4(C)CC[C@@]3(C)[C@@H]2C1 | ELISA / antigen | >100 µM
Nc1ccn([C@@H]2CS[C@H](CO)O2)c(=O)n1 | - | 0.116 µM
CCCCCCCCCN1C[C@H](O)[C@@H](O)[C@H](O)[C@H]1CO | - | 1–10 µM
Nc1ccn([C@@H]2CS[C@H](CO)O2)c(=O)n1 | - | 0.006 µM
Nc1ccn([C@H]2CC[C@@H](CO)O2)c(=O)n1 | - | 100 µM
CCCOC(=O)[C@]1(C)CC[C@]2(C)CC[C@]3(C)C4=CC=C5C(=CC(=O)C(O)=C5C)[C@]4(C)CC[C@@]3(C)[C@@H]2C1 | ELISA / antigen | 23.1 µM
CC(C)(C)CCCCCCCN1C[C@H](O)[C@@H](O)[C@H](O)[C@H]1CO | - | 30 µM
O=c1[nH]c(=O)n([C@@H]2O[C@H](CO)[C@@H](O)[C@@H]2F)cc1I | - | 10 µM
CC1=C(O)C(=O)C=C2C1=CC=C1[C@@]2(C)CC[C@@]2(C)[C@@H]3C[C@](C)(C(=O)OCc4ccc([N+](=O)[O-])cc4)CC[C@]3(C)CC[C@]12C | ELISA / antigen | 14.4 µM
CCCOCCCCCCN1C[C@H](O)[C@@H](O)[C@H](O)[C@H]1CO | - | 100 µM
Nc1nc2c(ncn2[C@@H]2C[C@H](CO)[C@H]2CO)c(=O)[nH]1 | - | 2.5 µM
CCCCN1C[C@H](O)[C@@H](O)[C@H](O)[C@H]1CO | - | 100–500 µM
COc1ccc2[nH]cc(C3C=C4[C@@](C)(CC[C@@]5(C)[C@@H]6C[C@](C)(C(=O)O)CC[C@]6(C)CC[C@]45C)c4cc(O)c(O)cc43)c2c1 | ELISA / antigen | 67.3 µM
Nc1nc2c(ncn2[C@@H]2C[C@H](CO)[C@@H](O)C2)c(=O)[nH]1 | - | 0.05 µM
COC(=O)[C@]1(C)CC[C@]2(C)CC[C@]3(C)C4=CC=C5C(=CC(=O)C(OC)=C5C)[C@]4(C)CC[C@@]3(C)[C@@H]2C1 | ELISA / antigen | 22.1 µM
Nc1ncnc2c1ncn2CCOCP(=O)(O)O | hybridisation | 1.2 µM

A second listing of 2 rows from above:

compound | read by | value
CC1=C(O)C(=O)C=C2C1=CC=C1[C@@]2(C)CC[C@@]2(C)[C@@H]3C[C@](C)(C(=O)OCc4ccc([N+](=O)[O-])cc4)CC[C@]3(C)CC[C@]12C | ELISA / antigen | 14.4 µM
Nc1ccn([C@@H]2CS[C@H](CO)O2)c(=O)n1 | - | 0.116 µM